From ChEMBL document CHEMBL1142087 (Antimicrob Agents Chemother, 2007) come the findings set out here.

Structures are written as SMILES.

In assay [1] the test system is Influenza A virus. In words: Reduction of lung viral titre in BALB/c mouse infected with influenza A virus (A/duck/Minnesota/1525/1981 (H5N1)) at 33 mg/kg/day, po qid for 5 days administered 1 hr after infection measured on day 1 relative to carboxymethyl cellulose.
Assay [2] concerns Influenza A virus. In words: Reduction of lung viral titre in BALB/c mouse infected with influenza A virus (A/duck/Minnesota/1525/1981 (H5N1)) at 300 mg/kg/day, po qid for 5 days administered 1 hr after infection measured on day 1 relative to carboxymethyl cellulose.
Assay [3] relates to Influenza A virus. In words: Reduction of lung viral titre in BALB/c mouse infected with influenza A virus (A/duck/Minnesota/1525/1981 (H5N1)) at 100 mg/kg/day, po qid for 5 days administered 1 hr after infection measured on day 1 relative to carboxymethyl cellulose.
The test system of assay [4] is Influenza A virus. In words: Reduction of lung viral titre in BALB/c mouse infected with influenza A virus (A/duck/Minnesota/1525/1981 (H5N1)) at 20 mg/kg/day, po twice daily for 5 days administered 1 hr after infection measured on day 1 relative to carboxymethyl cellulose.

As to `NC(=O)c1nc(F)cnc1O`, the values for the Log10CCID50/g with Influenza A virus [1], with Influenza A virus [2] and in the assay with Influenza A virus [3] were 5.8, 3.5 and 4.9, respectively.
In the case of `CCOC(=O)C1=C[C@@H](OC(CC)CC)[C@H](NC(C)=O)[C@@H](N)C1` [OSELTAMIVIR], in the assay on Influenza A virus [4], the Log10CCID50/g came to 6.1.
